Test results published in patent publication US20220387615A1, “COMPOSITIONS COMPRISING ENZYME CLEAVABLE LINKER PLATFORMS AND CONJUGATES THEREOF” (Danmarks Tekniske Universitet, priority 2019, published 2022).

Tested on: Amano Lipase from Pseudomonas fluorescens
Assay: Lipase test of linker X8: cleavage and model drug release
Format: biochemical
Experimental: Compound X8 was exposed to lipase in phosphate buffered solutions at pH 6 and 7.4. […] The pH 6 and 7.4 tests were conducted to determine if any difference in the rate of intramolecular lactonisation would be observed. Initial tests involved incubation of the linker (1 mM in 2% DMSO/buffer) with 1 mg/mL lipase (>20 U/mL) at room temperature (FIG. 16). Caffeine was included as an internal standard. Aliquots were taken out at different time points and LC-MS and HPLC used for analysis.

## CCCCCCCC(=O)OCCN(CC(=O)OCC(=O)c1ccc(Br)cc1)C(=O)c1ccccc1 [Example X8, 2-(N-(2-(2-(4-bromophenyl)-2-oxoethoxy)-2-oxoethyl)benzamido)ethyl octanoate]
FIG. 17, conversion over 114 min
  accumulation of intermediate X9: negligible accumulation
pH 6, 1 mg/mL lipase, room temperature
  accumulation of X9: major accumulation
pH 7.4, 1 mg/mL lipase, room temperature
  accumulation of the intermediate X9: no significant accumulation
